Converted amounts (≈) assume the structure as drawn.
System: C8166 cells
Experiment: Cytotoxicity in C8166 cells (CC50)
Format: cell-based, human
Conditions: measured twice, average

Compound: COc1ccccc1NC(=O)c1cc(N)ccc1Sc1ccc([N+](=O)[O-])cc1 [compound 24, 5-amino-N-(2-methoxyphenyl)-2-((4-nitrophenyl)thio)benzamide]
- CC50: 172.21 µg/mL (≈ 435 µM)
